Compound potency records, mixed from different reports. Data source: NIAID ChemDB in PubChem.

Shared fields: host cell toxicity; endpoint: CC50

CCn: concentration that lowers growth or viability of the cells by n%.

CO[C@H]1C(n2ccc(NC(=O)c3ccccc3)nc2=O)O[C@H](CO)[C@H]1O ; cells: VERO 76 ; value: >7 µM
CN(C)C(=O)/N=N/C(=O)N(C)C ; cells: VERO ; value: >200 µM
Nc1ccn([C@@H]2O[C@H](CO)C[C@H]2O)c(=O)n1 ; cells: VERO 76 ; value: >100 µM
Nc1ccn(C[C@@H](CO)OCP(=O)(O)O)c(=O)n1 ; cells: HFF ; value: 278.4 µM
CNc1nc(N)nc2c1ncn2CCOCP(=O)(O)O ; cells: PHK ; value: 8.9 µg/mL
CN1CCCCCC1C12CC3CC(CC(C3)C1)C2 ; cells: MDCK ; value: 39 µM
Nc1ncnc2c1ncn2C[C@H]1COP(=O)(O)CO1 ; cells: PHK ; value: 17.2 µg/mL
CN(C)c1nc(N)nc2c1ncn2CCOCP(=O)(O)O ; cells: HFF ; value: >316 µM
Nc1ccn(C[C@@H](CO)OCP(=O)(O)O)c(=O)n1 ; cells: PHK ; value: ≥34 µg/mL
Nc1ncnc2c1ncn2[C@H]1CC[C@@H](CO)O1 ; cells: VERO E6 ; value: >100 µM
CC1=CC2O[C@H]3C[C@H]4OC(=O)/C=C\C=C\[C@H](C(C)O)OCC/C(C)=C/C(=O)OCC2(CC1)[C@@]4(C)[C@]31CO1 ; cells: VERO ; value: 0.0072 µg/mL
Nc1nccc2c1ncn2[C@@H]1C=C[C@@H](O)[C@H]1O ; cells: VERO E6 ; value: >1700 µM
Nc1nc(Cl)c2ncn(CCOCP(=O)(O)O)c2n1 ; cells: PHK ; value: 0.9 µg/mL
C[C@H]1C[C@@H](n2cnc3c(N)nccc32)[C@H](O)[C@@H]1O ; cells: VERO E6 ; value: >1016 µM
C1CCC(C23CC4CC(CC(C4)C2)C3)NC1 ; cells: MDCK ; value: 978 µM
Nc1ncnc2c1ncn2[C@@H]1C=C[C@@H](O)[C@H]1O ; cells: HeLa ; value: 18 µg/mL
CCCCCCCCCCCCCCCCOCCCOP1(=O)CO[C@@H](Cn2ccc(N)nc2=O)CO1 ; cells: HFF ; value: >100 µM
CN(C)c1ncnc2c1ncn2CCCOCP(=O)(O)O ; cells: PHK ; value: 13.9 µg/mL
CCCCCCCCCCCCCCCCOCCCOP(=O)(O)CO[C@H](CO)Cn1ccc(N)nc1=O ; cells: HFF ; value: 31 µM
Nc1nc2c(ncn2[C@H]2CC[C@@H](CO)O2)c(=O)[nH]1 ; cells: VERO E6 ; value: >2 µM
O=Nc1ccc2ccccc2c1N=Nc1ccccc1C(=O)O ; cells: VERO ; value: 363.7 µM
CCCCNc1nc(N)nc2c1ncn2CCOCP(=O)(O)O ; cells: PHK ; value: 11.3 µg/mL
CO[C@H]1C(n2cc(C)c(NC(C)=O)nc2=O)O[C@H](CO)[C@H]1O ; cells: VERO 76 ; value: >100 µM
Nc1ncnc2c1ncn2[C@@H]1C=C(CO)[C@@H](O)[C@H]1O ; cells: HeLa ; value: 0.17 µg/mL
CC(C)OP(=O)(O)COCCn1cnc2c(=O)[nH]c(N)nc21 ; cells: PHK ; value: 13.6 µg/mL
CN1CCCCC1C12CC3CC(CC(C3)C1)C2 ; cells: MDCK ; value: 928 µM
CCCCOC(=O)[C@H](C)NP1(=O)CO[C@@H](Cn2ccc(N)nc2=O)CO1 ; cells: HFF ; value: >153 µM
Nc1nc(=O)n([C@H]2C[C@H](O)[C@@H](CO)O2)cc1Br ; cells: VERO 76 ; value: >100 µM
C1CCN(CC2CC2)C(C23CC4CC(CC(C4)C2)C3)C1 ; cells: MDCK ; value: 162 µM
CC(C)OC(=O)C(C)NP(=O)(COCCn1cnc2c(NC3CC3)nc(N)nc21)Oc1ccccc1 ; cells: HFF ; value: >209 µM
CC1=CC2O[C@H]3C[C@H]4OC(=O)/C=C\C=C\C(=O)OCC/C(C)=C/C(=O)OCC2(CC1)[C@@]4(C)[C@]31CO1 ; cells: VERO ; value: 0.0082 µg/mL

Rows are shuffled and stem from different studies.